The text below walks through data of publication PMC10974995 (Pathogens, 2024).

Series [1] concerns PK-15 (porcine kidney epithelial cells) and/or FFL (feline fetus lung cells). In words: Inhibition of cell proliferation (ICP) assay, PK-15 and/or FFL. As to conditions: for In Vitro ICP 2d, toxic (+) / nontoxic (−), microbial metabolites: mycotoxins and fungal metabolites; for EC50 In Vitro ICP 2d: pure substances, PK-15 and/or FFL, triplicate.
The test system of series [2] is boar sperm. The series can be described thus: Boar sperm motility inhibition (BSMI) assay, ex vivo. Conditions: for Ex Vivo BSMI 1–3d, toxic (+) / nontoxic (−), microbial metabolites: mycotoxins and fungal metabolites; for EC50 Ex Vivo BSMI 1–3d: pure substances, 1–3 d of exposure, triplicate.

In the case of `CC1=C[C@H]2O[C@@H]3C[C@H]4OC(=O)/C=C\C=C\[C@H]([C@@H](C)O)OCC[C@@H](C)[C@H](O)C(=O)OC[C@@]2(CC1)[C@]4(C)[C@]31CO1`, in series [1], the “In Vitro ICP 2d, toxic (+) / nontoxic (−), microbial metabolites” value (“In Vitro ICP 2d, toxic (+) / nontoxic” below) was “(+) (For the microbial metabolites, EC50 < 5 µg mL^−1 and <10 µg mL^−1 were considered as toxic in the BSMI and ICP assays, respectively)”; the “EC50 In Vitro ICP 2d” value stood at 0.0007 μg mL^–1. In series [2], the “Ex Vivo BSMI 1–3d, toxic (+) / nontoxic (−), microbial metabolites” value (shortened to “Ex Vivo BSMI 1–3d, toxic (+) / nontoxic”) is on record as “(−)” and the “EC50 Ex Vivo BSMI 1–3d” value is given as above 1 μg mL^–1.

For `CC1=C[C@H]2O[C@@H]3C[C@H]4OC(=O)/C=C\C=C\C(=O)OCC[C@@H](C)[C@H](O)C(=O)OC[C@@]2(CC1)[C@]4(C)[C@]31CO1`, in series [1], the “In Vitro ICP 2d, toxic (+) / nontoxic” value was “(+) (For the microbial metabolites, EC50 < 5 µg mL^−1 and <10 µg mL^−1 were considered as toxic in the BSMI and ICP assays, respectively)”; the “EC50 In Vitro ICP 2d” value is reported as 0.0006 μg mL^–1. Further, in series [2], the “Ex Vivo BSMI 1–3d, toxic (+) / nontoxic” value was “(−)” and the “EC50 Ex Vivo BSMI 1–3d” value stood at 5 μg mL^–1.

Satratoxin G: in series [1], the “In Vitro ICP 2d, toxic (+) / nontoxic” value is “(+) (For the microbial metabolites, EC50 < 5 µg mL^−1 and <10 µg mL^−1 were considered as toxic in the BSMI and ICP assays, respectively)”; the “EC50 In Vitro ICP 2d” value was found to be 0.0009 μg mL^–1. In series [2], the “Ex Vivo BSMI 1–3d, toxic (+) / nontoxic” value is given as “(−)” and the “EC50 Ex Vivo BSMI 1–3d” value worked out at 5 μg mL^–1.

Consider `CC(=O)OC[C@]12C[C@H](OC(=O)CC(C)C)C(C)=C[C@H]1O[C@@H]1[C@H](O)[C@@H](OC(C)=O)[C@@]2(C)[C@]12CO2`, for which, in series [1], the “In Vitro ICP 2d, toxic (+) / nontoxic” value is “(+) (For the microbial metabolites, EC50 < 5 µg mL^−1 and <10 µg mL^−1 were considered as toxic in the BSMI and ICP assays, respectively)”; the “EC50 In Vitro ICP 2d” value was found to be 0.0023 μg mL^–1. Besides, the “Ex Vivo BSMI 1–3d, toxic (+) / nontoxic” value in series [2] is listed as “(−)”.
